Anti-infective test results gathered from many reports (values: NIAID ChemDB through PubChem).

Common to all: tests on isolated targets; organism: HIV-1; target: Reverse transcriptase; endpoint: IC50

Conditions beyond the fields shown may differ between rows. ICn: concentration for n% inhibition. An empty or dashed field is not shown.

compound	mutations	strain or isolate	result
CCNc1cccnc1N1CCN(C(=O)c2cc3cc4c(cc3[nH]2)OCO4)CC1	RT-Y181C	IIIB	>50 µM
CCc1c(Sc2ccccn2)n(COCc2ccccc2)c(=O)[nH]c1=O	RT-Y181C	-	>50 µM
CC(C)Nc1cccnc1N1CCN(C(=O)c2cc3cc4c(cc3[nH]2)OCO4)CC1	RT-P236L	IIIB	3.3 µM
Cc1occc1C(=S)Nc1ccc(Cl)c(/C=N/OC(C)(C)C)c1	RT-P236L	-	4.1 µM
c1ccc(C2SCc3nc4ccccc4n32)cc1	RT-Y181I	-	>50 µM
Cc1cc(C)c(-n2nnnc2SCC(=O)Nc2ccc([N+](=O)[O-])cc2Cl)c(C)c1	RT-K103N	-	0.11 µM
C[C@@H](NC(=S)Nc1nc2ccccc2s1)c1cccc2ccccc12	-	-	0.44 µM
Cc1ccc(-n2nnnc2SCC(=O)Nc2ccccc2[N+](=O)[O-])c(Br)c1	RT-K103N	-	0.009 µM
CCOc1ccccc1N1CCN(C(=O)c2cc3cc4c(cc3[nH]2)OCO4)CC1	-	IIIB	1.5 µM
CCOC(=O)Cc1csc(NC(=S)NC[C@H](C)c2ccccc2)n1	-	-	>100 µM
CCOc1ccccc1N1CCN(C(=O)c2cc3ccccc3[nH]2)CC1	RT-Y181C	IIIB	>50 µM
Cc1ccc(NC(=S)N[C@@H](C)c2ccccc2)nc1	-	-	>100 µM
CC(C)=CCOc1cc(NC(=S)c2ccoc2C)ccc1Cl	RT-K103N	-	22.3 µM
O=S(=O)(c1ccccc1)n1c(-c2c(F)cccc2F)nc2ccccc21	-	-	~10 µM
Cc1cc(C)c(-n2nnnc2SCC(=O)Nc2ccc(S(N)(=O)=O)cc2C)c(C)c1	-	-	0.054 µM
Cc1cccc2c1nc(CO)n2Cc1c(F)cccc1F	-	-	>10 µM
CNc1ccc(Cl)cc1S(=O)(=O)c1ccccc1[N+](=O)[O-]	RT-Y181I	-	22 µM
Cc1cccc2c1nc(-c1c(F)cccc1F)n2Cc1c(Cl)cccc1Cl	-	-	~10 µM
Cc1cc(C)c(-n2nnnc2SCC(=O)Nc2ccc(S(N)(=O)=O)cc2Cl)c(C)c1	RT-K103N	-	0.012 µM
Cc1nc2ccccc2n1Cc1c(F)cccc1F	-	-	>10 µM
C/C=C/CSc1cc(NC(=S)c2ccsc2C)ccc1Cl	RT-Y181I	-	35.5 µM
CCC(NC(=S)Nc1ccc(Br)cn1)c1ccccc1	-	-	5.4 µM
Fc1cccc(F)c1Cn1c(-c2c(F)cccc2F)nc2cc(Cl)ccc21	-	-	~10 µM

For reference, 3 entries again:

c1ccc(C2SCc3nc4ccccc4n32)cc1 ; mutations: RT-Y181I ; result: >50 µM
CCNc1cccnc1N1CCN(C(=O)c2cc3cc4c(cc3[nH]2)OCO4)CC1 ; mutations: RT-Y181C ; strain or isolate: IIIB ; result: >50 µM
Cc1cc(C)c(-n2nnnc2SCC(=O)Nc2ccc([N+](=O)[O-])cc2Cl)c(C)c1 ; mutations: RT-K103N ; result: 0.11 µM